Values joined by “and” are separate entries in the source; they are usually repeats but may differ in a detail not shown here. Equal entries are not always repeated. Where two headings read alike, the source gives them in different places.
How the values were obtained:
Assay in all cases: cell-based or functional assay
[1] = biological target: human Nav1.4 voltage-gated sodium channel (human) (UniProt P35499)
[2] = biological target: human Nav1.5 voltage-gated sodium channel (human) (UniProt Q14524)
[3] = biological target: human Nav1.7 voltage-gated sodium channel (human) (UniProt Q15858)
[4] = biological target: human Nav1.7 voltage-gated sodium channel (human) (UniProt Q15858); remark: listed apart in the source
[5] = biological target: mouse Nav1.4 voltage-gated sodium channel (mouse) (UniProt Q9ER60)
[6] = biological target: mouse Nav1.7 voltage-gated sodium channel (mouse) (UniProt Q62205)
[7] = biological target: rat Nav1.7 voltage-gated sodium channel (rat) (UniProt O08562)
[8] = biological target: human voltage-gated sodium channel Nav1.7 (human) (UniProt Q15858)
[9] = biological target: human Nav1.6 voltage-gated sodium channel (human) (UniProt Q9UQD0)
[10] = biological target: TTX-sensitive Nav channels in rat DRG neurons
[11] = biological target: hNav1.4 channels in HEK293 cell (human) (UniProt P35499)
[12] = biological target: human voltage-gated sodium channel Nav1.3 (human) (UniProt Q9NY46)
[13] = biological target: human voltage-gated sodium channel Nav1.4 (human) (UniProt P35499)
[14] = biological target: human voltage-gated sodium channel Nav1.5 (human) (UniProt Q14524)

“Pra-[Nle6; Trp29]JzTx-V(1-29) (peptide; modification not given)” showed a Nav1.4/Nav1.7 [1] of 8, a PX hNav1.4 Tonic IC50 [1] of 37 nM and a Nav1.5/Nav1.7 [2] of 479. For the same substance, the PX hNav1.5 Tonic IC50 [2] was 2290 nM and the PX hNav1.7 Tonic IC50 [3] was 4.79 nM.

In the case of “Pra-[Glu1, 28; Nle6]JzTx-V(1-29) (peptide; modification not given)”, the Nav1.4/Nav1.7 [1] is reported as 164, the PX hNav1.4 Tonic IC50 [1] is reported as 185 nM and the Nav1.5/Nav1.7 [2] is reported as greater than 887. It also gave a PX hNav1.5 Tonic IC50 [2] greater than 1000 nM and a PX hNav1.7 Tonic IC50 [3] of 1.13 nM.

For “Pra-[Nle6; Gln28]JzTx (peptide; modification not given)”, the Nav1.4/Nav1.7 [1] was 12, the PX hNav1.4 Tonic IC50 [1] was 10.7 nM and the Nav1.5/Nav1.7 [2] was 3530. It also gave a PX hNav1.5 Tonic IC50 [2] of 3220 nM and a PX hNav1.7 Tonic IC50 [3] of 0.912 nM.

For “Atz(Biotin)-[Nle6]JzTx-V(1-29) (peptide; modification not given)”, the PX hNav1.4 Tonic IC50 [1] was 15.5 nM, the PX hNav1.5 Tonic IC50 [2] was 5130 nM and the PX hNav1.7 Tonic IC50 [3] was 2.48 nM.

“Pra-[Nle6;Glu12]JzTx-V(1-29) (peptide; modification not given)” showed a PX hNav1.7 Tonic IC50 [4] of 1.19 nM, a PX mNav1.4 Tonic IC50 [5] of 6.36 nM and a mNav1.4/mNav1.7 [5] of 10. For the same substance, the PX mNav1.7 Tonic IC50 [6] was 0.61 nM, the mNav1.7/hNav1.7 [6] was 0.51 and the PX rNav1.7 Tonic IC50 [7] was 0.58 nM. For the same substance, the rNav1.7/hNav1.7 [7] was 0.49.

For “Pra-[Nle6;Trp29]JzTx-V(1-29) (peptide; modification not given)”, the IC50, IonWorks Quattro electrophysiology [8] was 0.019 µM, the PX hNav1.7 Tonic IC50 [4] was 4.79 nM and the PX mNav1.4 Tonic IC50 [5] was 9.67 nM. It also gave a mNav1.4/mNav1.7 [5] of 0.91, a PX mNav1.7 Tonic IC50 [6] of 10.7 nM and a mNav1.7/hNav1.7 [6] of 2.23.

With “[Pra1; Nle6; Glu28]JzTx-V(1-29) (peptide; modification not given)” the Nav1.4/Nav1.7 [1] was 555 and the Nav1.5/Nav1.7 [2] was 17200.

For “Atz(PEG11-benzylthioacetamide)-[Nle6]JzTx-V(1-29) (peptide; modification not given)”, the PX hNav1.4 Tonic IC50 [1] was 13 nM, the PX hNav1.5 Tonic IC50 [2] was 1980 nM and the PX hNav1.7 Tonic IC50 [3] was 1.4 nM.

For “Pra-[Glu1,28;Nle6]JzTx-V(1-29) (peptide; modification not given)”, the PX hNav1.6 Tonic IC50 [9] was 584 nM, the PX hNav1.7 Tonic IC50 [3] was 1.13 nM and the PX hNav1.7 Tonic IC50 [4] was 1.13 nM. The PX mNav1.4 Tonic IC50 [5] was 259 nM, the mNav1.4/mNav1.7 [5] was 27 and the PX mNav1.7 Tonic IC50 [6] was 9.48 nM. For the same substance, the mNav1.7/hNav1.7 [6] was 8.41, the PX rNav1.7 Tonic IC50 [7] was 1.38 nM and the rNav1.7/hNav1.7 [7] was 1.22.

In the case of “Pra-[Nle6,Glu28]JzTx-V(1-29) (peptide; modification not given)”, the WCPC Mean IC50, partially inactivated [10] is reported as 30.7 nM, the PX hNav1.6 Tonic IC50 [9] is reported as 183 nM and the PX hNav1.7 Tonic IC50 [3] is reported as 0.548 nM. For the same substance, the WCPC Mean IC50, partially inactivated [3] was 0.62 nM, the PX hNav1.7 Tonic IC50 [4] was 0.548 nM and the mNav1.4/mNav1.7 [5] was 12. The PX mNav1.7 Tonic IC50 [6] was 9.86 nM, the mNav1.7/hNav1.7 [6] was 18 and the PX rNav1.7 Tonic IC50 [7] was 0.641 nM. It also gave a rNav1.7/hNav1.7 [7] of 1.17.

For “[Glu20,Trp29]JzTx-V(1-29) (peptide; modification not given)”, the Nav1.4 selectivity (fold over hNav1.7), PatchXpress [11] was greater than 1000 fold, the PX hNav1.6 Tonic IC50 [9] was 720 nM and the PX hNav1.7 Tonic IC50 [3] was 1.59 nM. The WCPC Mean IC50, partially inactivated [3] was 0.23 nM, the PX hNav1.7 Tonic IC50 [4] was 1.59 nM and the PX mNav1.7 Tonic IC50 [6] was 5.08 nM. It also gave a mNav1.7/hNav1.7 [6] of 3.2, a PX rNav1.7 Tonic IC50 [7] of 1.3 nM and a rNav1.7/hNav1.7 [7] of 0.82.

For “Pra-[Nle6]JzTx-V(1-29) (peptide; modification not given)”, the PX hNav1.6 Tonic IC50 [9] was 67.9 nM, the PX hNav1.7 Tonic IC50 [3] was 1.2 nM and the IC50, IonWorks Quattro electrophysiology [8] was 0.008 µM and 0.013 µM. The PX hNav1.7 Tonic IC50 [4] was 1.2 nM, the PX mNav1.4 Tonic IC50 [5] was 0.18 nM and the mNav1.4/mNav1.7 [5] was 0.35. It also gave a PX mNav1.7 Tonic IC50 [6] of 0.511 nM, a mNav1.7/hNav1.7 [6] of 0.43 and a PX rNav1.7 Tonic IC50 [7] of 0.522 nM. It also gave a rNav1.7/hNav1.7 [7] of 0.44.

In the case of “Atz(NPEG10)-[Nle6]JzTx-V(1-29) (peptide; modification not given)”, the PX hNav1.4 Tonic IC50 [1] is reported as 8 nM, the PX hNav1.5 Tonic IC50 [2] is reported as 3770 nM and the PX hNav1.7 Tonic IC50 [3] is reported as 6 nM. For the same substance, the IC50, IonWorks Quattro electrophysiology [12] was 0.13 µM, the IC50, IonWorks Quattro electrophysiology [13] was 0.15 µM and the Nav1.4/Nav1.7 (ratio of IC50) [13] was 2 fold. For the same substance, the IC50, IonWorks Quattro electrophysiology [14] was 4.3 µM and the IC50, IonWorks Quattro electrophysiology [8] was 0.07 µM.

“Homodimeric Conjugate No. 2 (peptide; modification not given)” was tested, and the PX hNav1.5 Tonic IC50 [2] was 720 nM and 1180 nM.
